Primary screen of a compound library

Source: ChEMBL document CHEMBL3988442, “University of Dundee, Small-Polar-MMV Screening Library” (2021).

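Growth of Mycobacterium tuberculosis over 3 days (7H9 medium with glucose and tyloxapol); the read-out is not stated. Tested at 500 µM. The record gives no direction; compounds that gave an IC50 in retests scored well above the rest, so higher reads as more growth inhibition. Of about 18,000 compounds tested this way, about 1,400 (7.9%) reached 50% or more in at least one test.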

Values are the deposited “Percent Effect”, in %.
How 0% and 100% were set is not recorded. Most values in the screen are low, and negative values occur.
This is part of a subset picked to be rich in strong results.

For CCn1ccnc(NC2CC2)c1=O the result was 4.682%. Result for CCN1CCCC1CNC(=O)c1ccc(C#N)cc1 (configuration not stated) was 15.16%. CC(C)NC(=O)Cn1c(S(C)(=O)=O)nc2ccccc21 gave -7.342%. CNCCCN1C(=O)c2ccccc2C1=O read 2.916%. Result for COCCN(C)CCNC(=O)c1cc2ccccc2[nH]1 was 32.58%.

For CC(=O)N(CC(=O)N1CCCCC1)c1ccc(C)cc1 the result was 16.04%. CC(C)(C)OC(=O)NCC(C)(O)c1ccco1 (configuration not stated) gave 24.42%. CCN1CCN(c2ccc(F)cc2C(C)N)CC1 (configuration not stated) gave 22.04%. CS(=O)(=O)CC1(CNCc2cccs2)CC1 gave 7.783%. Result for NCc1cccc2cc[nH]c12 was 64.15%.

NCc1ccc2c(c1)COC2 read 2.811%. With Cc1nonc1CC(=O)N(C)CC1CCCCO1 (configuration not stated) the screen gave 17.3%. Result for CO[C@H]1C[C@@H](O)C12CCN(C(=O)Cc1cccs1)CC2 was 17.04%. With Cc1ccccc1N(C(=O)C(C)C)C1C=CS(=O)(=O)C1 (configuration not stated) the screen gave 6.006%. NC(=O)C1CCCCN1Cc1cn2ccccc2n1 (configuration not stated) gave 5.683%.

For CC(=O)Nc1ccnn1Cc1ccccc1F the result was -1.572%. For COC(=O)CCCNc1ccc2c(c1)OCCO2 the result was 57.46%. For CCCN(CCO)Cc1nnc(CC)o1 the result was -1.398%. Cn1c(CN)nc2ccc(F)cc21 read 25.34%. Result for CN(C)CCCNC(=O)c1cc2ccccc2o1 was 14.44%.

Result for O=C(CC1COCCN1)N1CCC(c2ncc[nH]2)CC1 (configuration not stated) was -7.068%. For NC1CCCN(c2ccc(C(F)(F)F)cn2)C1 (configuration not stated) the result was 25.77%. For NCCNS(=O)(=O)c1ccc(Br)c(F)c1 the result was 41.57%. CNC(=O)c1nc(C(=O)NCc2ccc(C)o2)cs1 read 44.59%. With Cc1ccoc1C(=O)N(C)Cc1ccc[nH]1 the screen gave 22.94%.

For CC(C)[C@H]1CN(c2nccc(N)n2)C[C@@H]1N the result was 13.09%. Cn1ccc(C(=O)Nc2sc3c(c2C(N)=O)CCC3)n1 read 3.018%. CC(C)(C)Oc1ccc(C(=O)N2CC(CO)C2)cn1 gave -12.45%. COc1ccc(C(O)CNC(=O)Nc2nncs2)cc1 (configuration not stated) read 79.52%. With Cc1noc(OCC(=O)N(C)Cc2ccco2)n1 the screen gave -9.07%.

COCCN(CC(N)=O)S(=O)(=O)c1cc(F)ccc1C gave 13.94%. COc1cccc(CN2CCCS(=O)(=O)CC2)c1 read 17.39%. For NCCNc1nccc(C(F)(F)F)n1 the result was 10.72%. Result for CC(C)n1cnnc1CCNC(=O)C1(C)CCCCO1 (configuration not stated) was -2.071%. Cc1cc(CN)nn1C read 10.26%.

Result for O=C(CN1CSCC1=O)NCCC1=CCCCC1 was 21.45%. For CO[C@@H]1CCOC[C@H]1NC(=O)CCc1ccccn1 the result was 7.736%. Result for COC[C@@H]1CCCN1Cc1cc2n(n1)CCNC2 was -7.596%. Cc1onc(N)c1S(=O)(=O)NCc1ccccc1Cl read 52.91%. Nc1nnc(SCC2COc3ccccc3O2)s1 (configuration not stated) read -8.794%.

For CCn1cc(COC2CCNC2)cn1 (configuration not stated) the result was 6.815%. O=C(NCCCc1ncc[nH]1)[C@H]1CCC[C@H](O)C1 read -5.329%. For CCCn1ccc(NC(=O)c2cccc(C#N)c2)n1 the result was 56.78%. Cc1ccc(-c2noc(CNS(C)(=O)=O)n2)cc1 gave 55.78%. CC(CO)NC(=O)NCc1ccnc(N2CCCC2)c1 (configuration not stated) gave 4.766%.

For FC(F)(F)CNC1COC1 the result was -8.969%. CC1CN(C2CCN(c3ccncc3Cl)CC2)CCO1 (configuration not stated) gave 18.59%. Nc1nc(C2CC(N)C2)cc(N2CCC(F)CC2)n1 (configuration not stated) gave 4.693%.

Some entries from above, unchanged:

structure,effect
Cc1cc(CN)nn1C,10.26
Nc1nc(C2CC(N)C2)cc(N2CCC(F)CC2)n1 (configuration not stated),4.693
CC(C)[C@H]1CN(c2nccc(N)n2)C[C@@H]1N,13.09
Cc1nonc1CC(=O)N(C)CC1CCCCO1 (configuration not stated),17.3
CCn1cc(COC2CCNC2)cn1 (configuration not stated),6.815
NC(=O)C1CCCCN1Cc1cn2ccccc2n1 (configuration not stated),5.683